Pooled drug test results. Numbers come from NIAID ChemDB, via PubChem.

Common to all: growth or infection tests

a–b is a range or a potency band. An empty or dashed field is not shown. Rows are shuffled and stem from different studies. Inhibition is in % at the dose shown (toxicity tests: loss of growth or viability). ECn is the concentration giving n% inhibition of infection, replication or growth.

SMILES | strain or isolate | read by | organism | cells | dose | measure | result
Nc1ncnc2c1ncn2[C@H]1C[C@H](O)[C@@H](CO)O1 | IRB-LA | cytopathic effect | Bovine herpesvirus 1 | MDBK | - | EC50 | >50 µM
CC1(C)OCC(CCCCN2C[C@H](O)[C@@H](O)[C@H](O)[C@H]2CO)O1 | - | plaque count | Bovine viral diarrhea virus | MDBK | - | EC50 | 30 µM
O=c1c(O)c(-c2ccc(O)cc2)oc2cc(O)cc(O)c12 | - | - | Bovine herpesvirus 1 | VERO | - | EC50 | 3.5 µg/mL
O[C@H]1[C@H](O)[C@@H](O)CN2CC[C@H](O)[C@H]12 | - | cytopathic effect | Bovine viral diarrhea virus | MDBK | - | EC50 | 400 µM
NC(=O)c1ncn([C@@H]2O[C@H](CO)[C@@H](O)[C@H]2O)n1 | - | plaque count | Bovine viral diarrhea virus | MDBK | - | EC50 | 1.1 µM
CCCCN1C[C@H](O)[C@@H](O)[C@H](O)[C@H]1CO | - | plaque count | Bovine viral diarrhea virus | MDBK | - | EC50 | 125–200 µM
Nc1cc(Cl)nc2c1ncn2[C@H]1C[C@H](O)[C@@H](CO)O1 | IRB-LA | cytopathic effect | Bovine herpesvirus 1 | MDBK | - | EC50 | >50 µM
CCCCCCCCCN1C[C@H](O)[C@@H](O)[C@H](O)[C@H]1CO | - | plaque count | Bovine viral diarrhea virus | MDBK | - | EC50 | 105 µM
Nc1ccn([C@@H]2O[C@H](CO)[C@@H](O)[C@H]2F)c(=O)n1 | - | replicon | Bovine viral diarrhea virus | Huh7 | - | EC90 | >100 µM
C[C@@H]1CC[C@H]2[C@@H](C)C(=O)O[C@@H]3OC4(C)CC[C@@H]1[C@]32OO4 | C24V | cytopathic effect | Bovine viral diarrhea virus | EBTR | 10 µM | inhibition | 80%
Nc1nc(Cl)cc2c1ncn2[C@@H]1O[C@H](CO)C[C@H]1O | IRB-LA | cytopathic effect | Bovine herpesvirus 1 | MDBK | - | EC50 | >50 µM
OC[C@H]1NC[C@H](O)[C@@H](O)[C@@H]1O | - | plaque count | Bovine viral diarrhea virus | MDBK | - | EC50 | 150–300 µM
OC[C@@H]1CC[C@H](n2cnc3c(NC4CCCCCC4)ncnc32)O1 | IRB-LA | cytopathic effect | Bovine herpesvirus 1 | MDBK | - | EC50 | >50 µM
CCC(C)CCC[C@@H](C)CCN1C[C@H](O)[C@@H](O)[C@H](O)[C@H]1CO | - | plaque count | Bovine viral diarrhea virus | MDBK | - | EC50 | 8 µM
OC[C@@H]1C[C@@H](O)[C@H](n2cnc3c(NC4CCCCCC4)ccnc32)O1 | IRB-LA | cytopathic effect | Bovine herpesvirus 1 | MDBK | - | EC50 | >50 µM
CCCC(=O)O[C@H]1CN2CC[C@H](O)[C@@H]2[C@@H](O)[C@@H]1O | - | cytopathic effect | Bovine viral diarrhea virus | MDBK | - | EC50 | 52 µM